Source: PMC10111423, “Antimalarial Imidazopyridines Incorporating an Intramolecular Hydrogen Bonding Motif: Medicinal Chemistry and Mechanistic Studies” (ACS Infectious Diseases, 2023)

System: P. falciparum-infected erythrocyte
Test: Live-cell confocal microscopy colocalization with organelle trackers
Type: cell-based, Plasmodium falciparum

Structure (SMILES): O=[N+]([O-])c1ccc(NCCN(CCNc2cc3[nH]c(-c4cccc(C(F)(F)F)c4)nc3cn2)Cc2ccc(Cl)cc2O)c2nonc12 [Compound 14-NBD, 5-Chloro-2-(((2-((7-nitrobenzo[c][1,2,5]oxadiazol-4-yl)amino)ethyl)(2-((2-(3-(trifluoromethyl)phenyl)-1H-imidazo[4,5-c]pyridin-6-yl)amino)ethyl)amino)methyl)phenol]
- Colocalization with LysoTracker Red (acidic organelles, digestive vacuole): partial accumulation
- Colocalization with MitoTracker Deep Red (mitochondrion): interacted significantly with the parasite’s mitochondrion
- Colocalization with Nile Red (neutral lipids): colocalized with Nile Red
- Colocalization with nuclear marker DRAQ5: no colocalization was observed
